# Test results published in patent US20190256564A1, “NEMERTEA-DERIVED BIOACTIVE COMPOUNDS” (priority 2016, published 2019).
# By UniProt entry, the sequences of proteins in these tests, tags left out.
# UniProt Q14524, whole entry: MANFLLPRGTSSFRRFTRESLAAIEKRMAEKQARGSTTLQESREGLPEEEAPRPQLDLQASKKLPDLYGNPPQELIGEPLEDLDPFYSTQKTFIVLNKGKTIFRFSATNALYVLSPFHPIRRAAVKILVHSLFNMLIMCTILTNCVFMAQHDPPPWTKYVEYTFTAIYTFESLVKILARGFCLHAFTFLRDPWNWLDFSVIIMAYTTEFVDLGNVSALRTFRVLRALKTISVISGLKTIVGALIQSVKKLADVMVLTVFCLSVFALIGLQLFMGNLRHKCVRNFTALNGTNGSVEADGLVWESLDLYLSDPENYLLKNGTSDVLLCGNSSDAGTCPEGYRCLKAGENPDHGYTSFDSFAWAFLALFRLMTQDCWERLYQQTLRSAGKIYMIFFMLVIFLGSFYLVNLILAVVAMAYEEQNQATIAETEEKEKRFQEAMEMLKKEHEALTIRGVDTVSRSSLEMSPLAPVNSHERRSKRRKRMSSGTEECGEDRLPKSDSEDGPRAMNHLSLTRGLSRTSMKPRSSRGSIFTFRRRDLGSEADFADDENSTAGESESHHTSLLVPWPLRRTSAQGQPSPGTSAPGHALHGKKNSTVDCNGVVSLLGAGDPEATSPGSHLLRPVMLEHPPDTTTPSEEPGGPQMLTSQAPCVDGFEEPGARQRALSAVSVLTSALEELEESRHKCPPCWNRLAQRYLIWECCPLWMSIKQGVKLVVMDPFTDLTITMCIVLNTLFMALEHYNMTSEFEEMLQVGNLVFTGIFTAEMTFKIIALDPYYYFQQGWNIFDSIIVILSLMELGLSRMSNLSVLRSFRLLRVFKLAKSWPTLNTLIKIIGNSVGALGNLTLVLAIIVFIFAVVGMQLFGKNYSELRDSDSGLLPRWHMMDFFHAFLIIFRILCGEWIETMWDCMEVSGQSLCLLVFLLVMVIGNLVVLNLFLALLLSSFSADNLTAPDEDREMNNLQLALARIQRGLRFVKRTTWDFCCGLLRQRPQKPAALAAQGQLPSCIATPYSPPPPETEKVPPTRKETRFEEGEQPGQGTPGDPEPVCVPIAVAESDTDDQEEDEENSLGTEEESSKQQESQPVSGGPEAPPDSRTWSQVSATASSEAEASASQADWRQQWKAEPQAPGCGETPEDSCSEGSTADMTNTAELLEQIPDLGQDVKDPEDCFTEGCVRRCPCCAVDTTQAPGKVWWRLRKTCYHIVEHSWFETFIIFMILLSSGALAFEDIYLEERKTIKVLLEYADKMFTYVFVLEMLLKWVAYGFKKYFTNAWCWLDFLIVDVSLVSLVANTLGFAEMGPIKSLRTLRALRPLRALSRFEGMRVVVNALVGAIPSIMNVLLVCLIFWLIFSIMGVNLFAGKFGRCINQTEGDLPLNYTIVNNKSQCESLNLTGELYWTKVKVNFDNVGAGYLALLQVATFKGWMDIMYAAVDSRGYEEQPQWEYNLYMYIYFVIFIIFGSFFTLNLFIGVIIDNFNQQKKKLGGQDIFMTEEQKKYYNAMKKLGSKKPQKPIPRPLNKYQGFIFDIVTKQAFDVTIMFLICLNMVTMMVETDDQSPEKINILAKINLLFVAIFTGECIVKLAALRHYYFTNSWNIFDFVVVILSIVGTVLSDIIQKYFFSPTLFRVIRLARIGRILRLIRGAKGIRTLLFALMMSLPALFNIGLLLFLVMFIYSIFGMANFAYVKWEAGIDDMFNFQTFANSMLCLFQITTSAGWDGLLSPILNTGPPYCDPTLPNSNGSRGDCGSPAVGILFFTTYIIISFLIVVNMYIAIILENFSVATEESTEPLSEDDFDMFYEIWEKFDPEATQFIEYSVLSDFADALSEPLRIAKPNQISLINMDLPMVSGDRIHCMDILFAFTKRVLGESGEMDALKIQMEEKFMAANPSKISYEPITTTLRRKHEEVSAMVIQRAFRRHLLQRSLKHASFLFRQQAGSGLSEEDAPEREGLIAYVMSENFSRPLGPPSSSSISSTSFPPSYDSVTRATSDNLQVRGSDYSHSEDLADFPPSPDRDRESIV
# UniProt P15390, whole entry: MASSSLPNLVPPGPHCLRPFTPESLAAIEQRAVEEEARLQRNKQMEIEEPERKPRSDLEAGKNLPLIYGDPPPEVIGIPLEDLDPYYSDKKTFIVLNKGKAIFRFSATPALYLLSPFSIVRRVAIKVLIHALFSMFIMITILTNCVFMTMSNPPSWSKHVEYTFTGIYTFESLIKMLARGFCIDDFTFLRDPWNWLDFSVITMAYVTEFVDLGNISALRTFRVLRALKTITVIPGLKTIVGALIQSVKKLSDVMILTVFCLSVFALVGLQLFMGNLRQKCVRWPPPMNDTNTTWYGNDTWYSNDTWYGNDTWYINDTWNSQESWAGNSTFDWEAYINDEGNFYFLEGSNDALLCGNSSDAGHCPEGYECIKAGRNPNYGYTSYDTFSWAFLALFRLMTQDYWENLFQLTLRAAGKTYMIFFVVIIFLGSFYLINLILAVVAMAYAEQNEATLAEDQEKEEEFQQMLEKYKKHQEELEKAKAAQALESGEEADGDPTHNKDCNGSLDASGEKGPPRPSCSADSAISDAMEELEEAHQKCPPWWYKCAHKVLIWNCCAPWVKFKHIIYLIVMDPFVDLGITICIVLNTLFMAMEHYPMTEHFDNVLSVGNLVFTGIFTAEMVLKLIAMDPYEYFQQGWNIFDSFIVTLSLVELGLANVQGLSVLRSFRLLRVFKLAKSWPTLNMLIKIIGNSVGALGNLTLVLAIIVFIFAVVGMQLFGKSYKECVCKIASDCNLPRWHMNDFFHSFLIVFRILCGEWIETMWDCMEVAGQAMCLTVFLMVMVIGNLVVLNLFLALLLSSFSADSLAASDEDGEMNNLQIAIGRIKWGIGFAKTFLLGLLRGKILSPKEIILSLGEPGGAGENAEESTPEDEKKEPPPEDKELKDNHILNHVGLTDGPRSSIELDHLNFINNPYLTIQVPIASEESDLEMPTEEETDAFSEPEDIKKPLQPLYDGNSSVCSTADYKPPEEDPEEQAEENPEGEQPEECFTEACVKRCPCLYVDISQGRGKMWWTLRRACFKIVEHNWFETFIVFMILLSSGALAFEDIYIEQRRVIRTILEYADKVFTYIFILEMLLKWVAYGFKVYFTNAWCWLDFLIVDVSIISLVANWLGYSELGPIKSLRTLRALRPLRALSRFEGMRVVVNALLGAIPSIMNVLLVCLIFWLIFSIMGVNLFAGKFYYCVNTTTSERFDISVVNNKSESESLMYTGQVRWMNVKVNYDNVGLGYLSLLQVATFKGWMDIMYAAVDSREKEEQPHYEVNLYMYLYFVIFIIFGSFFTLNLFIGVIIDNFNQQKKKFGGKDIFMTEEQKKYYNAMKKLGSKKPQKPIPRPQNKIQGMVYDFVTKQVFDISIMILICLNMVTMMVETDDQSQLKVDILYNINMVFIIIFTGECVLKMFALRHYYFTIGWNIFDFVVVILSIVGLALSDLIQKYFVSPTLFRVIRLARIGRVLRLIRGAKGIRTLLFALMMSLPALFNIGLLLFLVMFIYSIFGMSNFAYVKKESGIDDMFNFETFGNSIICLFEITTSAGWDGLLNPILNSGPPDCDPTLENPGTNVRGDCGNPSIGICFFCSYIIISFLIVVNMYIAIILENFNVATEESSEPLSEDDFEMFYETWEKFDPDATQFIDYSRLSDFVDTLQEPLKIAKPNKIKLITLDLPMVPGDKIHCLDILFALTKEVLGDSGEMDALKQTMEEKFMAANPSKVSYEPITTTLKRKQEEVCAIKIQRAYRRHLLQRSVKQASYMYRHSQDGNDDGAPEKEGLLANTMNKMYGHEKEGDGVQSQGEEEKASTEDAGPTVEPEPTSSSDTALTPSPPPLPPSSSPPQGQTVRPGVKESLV
# UniProt Q9WTU3, whole entry: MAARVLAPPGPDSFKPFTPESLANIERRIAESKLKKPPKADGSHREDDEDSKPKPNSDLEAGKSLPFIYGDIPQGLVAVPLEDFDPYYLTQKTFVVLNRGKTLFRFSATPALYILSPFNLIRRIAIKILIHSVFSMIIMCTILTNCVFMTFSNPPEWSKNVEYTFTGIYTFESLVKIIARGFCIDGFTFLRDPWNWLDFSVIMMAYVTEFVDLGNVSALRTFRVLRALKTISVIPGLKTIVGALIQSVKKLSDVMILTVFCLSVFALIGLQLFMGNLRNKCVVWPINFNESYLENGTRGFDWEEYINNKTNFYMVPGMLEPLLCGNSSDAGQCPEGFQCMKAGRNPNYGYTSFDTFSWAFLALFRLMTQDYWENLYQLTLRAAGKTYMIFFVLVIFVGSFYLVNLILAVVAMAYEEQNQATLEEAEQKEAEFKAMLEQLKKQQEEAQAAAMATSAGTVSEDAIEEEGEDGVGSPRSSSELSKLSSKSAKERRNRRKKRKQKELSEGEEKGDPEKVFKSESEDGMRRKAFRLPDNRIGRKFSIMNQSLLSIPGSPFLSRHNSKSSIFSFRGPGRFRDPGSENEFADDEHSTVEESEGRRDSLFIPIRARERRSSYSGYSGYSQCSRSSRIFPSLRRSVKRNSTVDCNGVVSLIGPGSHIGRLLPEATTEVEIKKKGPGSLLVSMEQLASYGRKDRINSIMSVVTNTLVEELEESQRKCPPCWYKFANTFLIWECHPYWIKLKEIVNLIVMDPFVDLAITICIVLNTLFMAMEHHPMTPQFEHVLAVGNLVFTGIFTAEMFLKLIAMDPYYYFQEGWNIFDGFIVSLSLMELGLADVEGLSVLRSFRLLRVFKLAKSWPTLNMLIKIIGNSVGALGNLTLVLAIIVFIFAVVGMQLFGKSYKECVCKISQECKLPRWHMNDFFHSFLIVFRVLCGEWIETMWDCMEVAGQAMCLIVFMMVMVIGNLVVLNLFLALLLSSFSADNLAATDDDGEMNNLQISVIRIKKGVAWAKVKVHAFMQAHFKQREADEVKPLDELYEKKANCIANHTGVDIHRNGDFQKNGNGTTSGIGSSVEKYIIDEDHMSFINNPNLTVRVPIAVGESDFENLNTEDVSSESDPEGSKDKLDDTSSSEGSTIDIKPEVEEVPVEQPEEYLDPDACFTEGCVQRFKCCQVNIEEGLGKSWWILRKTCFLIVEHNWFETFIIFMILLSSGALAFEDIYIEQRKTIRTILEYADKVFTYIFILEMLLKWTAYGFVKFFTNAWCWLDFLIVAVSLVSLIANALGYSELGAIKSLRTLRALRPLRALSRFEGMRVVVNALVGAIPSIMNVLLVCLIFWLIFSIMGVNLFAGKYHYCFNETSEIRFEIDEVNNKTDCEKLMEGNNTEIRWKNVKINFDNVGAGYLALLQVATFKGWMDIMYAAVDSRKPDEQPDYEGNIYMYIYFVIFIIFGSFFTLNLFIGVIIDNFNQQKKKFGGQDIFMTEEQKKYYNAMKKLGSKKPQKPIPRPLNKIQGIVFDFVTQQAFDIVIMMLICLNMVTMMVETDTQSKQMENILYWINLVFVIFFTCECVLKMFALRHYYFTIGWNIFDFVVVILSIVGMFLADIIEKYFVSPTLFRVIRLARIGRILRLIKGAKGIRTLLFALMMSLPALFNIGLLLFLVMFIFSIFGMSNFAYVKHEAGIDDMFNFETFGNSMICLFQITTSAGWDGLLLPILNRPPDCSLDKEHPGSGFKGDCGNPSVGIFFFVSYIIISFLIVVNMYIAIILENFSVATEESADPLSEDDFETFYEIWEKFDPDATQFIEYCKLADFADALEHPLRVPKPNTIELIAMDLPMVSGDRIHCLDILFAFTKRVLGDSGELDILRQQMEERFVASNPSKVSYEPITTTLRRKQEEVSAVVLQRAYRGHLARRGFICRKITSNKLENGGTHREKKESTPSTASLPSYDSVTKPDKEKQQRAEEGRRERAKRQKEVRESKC
# What was measured:
# [1] = tested on: VdNav1; assay: Two-electrode voltage clamp, VdNav1 expressed in Xenopus oocytes; assay type: cell-based, Varroa destructor; details: 1 μM
# [2] = molecular target: Nav1.5 (Homo sapiens, UniProt Q14524); assay: Two-electrode voltage clamp, Nav1.5 expressed in Xenopus oocytes; assay type: cell-based
# [3] = molecular target: Nav1.4 (Rattus norvegicus, UniProt P15390); assay: Two-electrode voltage clamp, Nav1.4 expressed in Xenopus oocytes; assay type: cell-based
# [4] = tested on: BgNav1; assay: Two-electrode voltage clamp, BgNav1 expressed in Xenopus oocytes; assay type: cell-based, Blattella germanica
# [5] = molecular target: Nav1.6 (Mus musculus, UniProt Q9WTU3); assay: Two-electrode voltage clamp, Nav1.6 expressed in Xenopus oocytes; assay type: cell-based
# [6] = molecular target: Nav1.1 (Rattus norvegicus, UniProt P04774); assay: Two-electrode voltage clamp, Nav1.1 expressed in Xenopus oocytes; assay type: cell-based; details: 6 μM
# [7] = molecular target: DmNav1 (Drosophila melanogaster, UniProt P35500); assay: Two-electrode voltage clamp, DmNav1 expressed in Xenopus oocytes; assay type: cell-based
smiles,measurement,setting,value
CC[C@H](C)[C@@H]1NC(=O)[C@@H](NC(=O)CN)CSSC[C@@H]2NC(=O)[C@@H]3CSSC[C@@H](C(=O)N[C@@H](CC(N)=O)C(=O)N4C[C@H](O)C[C@H]4C(=O)N4C[C@H](O)C[C@H]4C(=O)N[C@@H](CC(N)=O)C(=O)N[C@@H](CCC(N)=O)C(=O)O)NC(=O)[C@H](CCCCN)NC(=O)[C@H](Cc4ccccc4)NC(=O)[C@H](CC(N)=O)NC(=O)[C@H](Cc4c[nH]c5ccccc45)NC(=O)CNC(=O)[C@H](CSSC[C@H](NC(=O)[C@H](Cc4ccccc4)NC(=O)[C@H](CO)NC(=O)CNC(=O)[C@H]([C@@H](C)O)NC(=O)[C@H](C)NC1=O)C(=O)N[C@@H]([C@@H](C)O)C(=O)N[C@@H](CC(C)C)C(=O)N[C@@H](CO)C(=O)N[C@@H](CCCCN)C(=O)NCC(=O)N3)NC(=O)[C@H](CC(N)=O)NC(=O)[C@H](CCCCN)NC(=O)[C@H]([C@@H](C)O)NC2=O [Nemertide α-1],effect on inactivation of VdNav1,[1],completely inhibited their inactivation
same,midpoint of activation of Nav1.5,"[2]; after application of 6 μM toxin, control −42.4±0.1 mV",−36.3±0.1 mV
same,midpoint of inactivation of Nav1.5,"[2]; in the presence of 6 μM toxin, control −62.2±0.2 mV",−50.6±0.1 mV
same,effect on inactivation of Nav1.4,[3]; 6 μM,significantly delayed the inactivation
same,midpoint of activation of Nav1.4,[3]; 6 μM,did not shift significantly
same,V1/2 of inactivation of Nav1.4,"[3]; in the presence of 6 μM toxin, control −38.1±0.2 mV",−48.6±0.4 mV
same,effect on recovery from inactivation of BgNav1,[4]; 10 nM,significantly enhanced the recovery from inactivation
same,state-dependence of toxin interaction with BgNav,"[4]; 10 nM, 2 minutes incubation without pulsing",open state is not required for toxin interaction with the channel
same,τ of recovery from inactivation of BgNav1,"[4]; 10 nM, control 11.6±0.4 ms",3.8 ± 0.5 ms
same,V1/2 of activation of BgNav1,"[4]; 10 nM, control −29.1±2.2 mV",−32.5±3.2 mV
same,EC50,[4]; concentration-response curve,8.6 ± 2.9 nM
same,V1/2 of inactivation of Nav1.6,"[5]; 6 μM toxin, control −53, 6±0.5 mV",−49.8±0.2 mV
same,V1/2 of activation of Nav1.6,"[5]; after application of 6 μM, control −20.8±0.1 mV",−17.3±0.3 mV
same,EC50,"[5]; concentration-response curve, read-out: EC50 of modulatory effect on Nav1.6",800 nM
same,kinetics of gating of Nav1.1 (steady-state activation and inactivation),[6],No significant alterations
same,effect on inactivation of DmNav1,[7]; 1 μM,complete inhibition of the inactivation; also recorded: completely inhibited their inactivation
same,EC50,[7]; read-out: EC50 on insect (DmNav1) channel,8 nM

# “Also recorded” adds a separate entry of the source.
